Pooled drug test results. Numbers come from NIAID ChemDB, via PubChem.

Common to all: whole-cell or culture tests; species: HIV-1

ECn: concentration that inhibits the pathogen or its effect by n%. Conditions beyond the fields shown may differ between rows. Blank or dashed fields: not listed here.

SMILES	measure	method	mutations	cells	strain or isolate	result
CC(C)CCC[C@@H](C)[C@H]1CCC2C3CCC4C[C@@H](OCc5cn([C@@H]6O[C@H](COS(=O)(=O)[O-])[C@@H](O[C@H]7O[C@H](COS(=O)(=O)[O-])[C@@H](O[C@H]8O[C@H](COS(=O)(=O)[O-])[C@@H](OS(=O)(=O)[O-])[C@H](OS(=O)(=O)[O-])[C@H]8OS(=O)(=O)[O-])[C@H](OS(=O)(=O)[O-])[C@H]7OS(=O)(=O)[O-])[C@H](OS(=O)(=O)[O-])[C@H]6OS(=O)(=O)[O-])nn5)CC[C@]4(C)C3CC[C@@]21C	EC50	p24 / ELISA / antigen	-	PBMC	HI92-206 isolate (X4/R5)	8 µg/mL
O=C(NCCc1ccccc1)Nc1nc2ccccc2s1	EC50	cytopathic effect / XTT	-	MT-4	-	<1 µg/mL
COCc1nc(Nc2ccc(C#N)cc2)nc(Nc2c(C)cc(/C=C/C#N)cc2C)c1C(=O)NC1CC1	EC50	-	-	MT4 CMV-EGFP	IIIB	0.0024 µM
Cc1cc(C)cc(S(=O)(=O)c2c(C(=O)NNCCO)[nH]c3ccc(Cl)cc23)c1	EC50	cytopathic effect / MTT	RT-K103N Y181C	MT-4	-	10 µM
Cc1ccnc(NC(=O)NCCc2ccccc2)n1	EC50	cytopathic effect / XTT	-	MT-4	-	<10 µg/mL
C#CCOCn1c(Cc2cccc(F)c2)c(CC)c(=O)[nH]c1=O	EC50	MTT	K103N + Y181C	MT-4	A17	56 µM
CCSCCn1c(=O)c(O)c2n(c1=O)CCN(Cc1ccc(F)cc1)C2=O	EC50	p24	-	MT-4	-	<10 µM
COCc1nc(Nc2ccc(C#N)cc2)nc(Nc2c(C)cc(/C=C/C#N)cc2C)c1C(=O)N1CCN(C)CC1	EC50	-	-	MT4 CMV-EGFP	L1001+K103N	2.45 µM
C=CCO/N=C/c1cc(NC(=S)c2ccoc2C)ccc1Cl	EC50	cytopathic effect / XTT	RT-D67N K70R Y181C T215Y K219Q	CEM + CEM-SS	4XAZT/Y181C (RT D67N K70R Y181C T215Y K219Q)	0.3 µM
OCCC#Cc1nc(-c2ccc(F)cc2)c(-c2ccncc2)n1CCCc1ccccc1	EC50	p24	-	Mono Mac 6	BaL	<1 µM
CC(C)c1c(Cc2ccccc2)n(COCc2ccccc2)c(=O)[nH]c1=O	EC50	p24 / ELISA	K103N/Y181C	TZM-bl	A17	>10 µM
CC=CCOc1cc(NC(=S)c2ccoc2C)ccc1OC	EC50	cytopathic effect / XTT	RT-D67N K70R Y181C T215Y K219Q	CEM + CEM-SS	4XAZT/Y181C (RT D67N K70R Y181C T215Y K219Q)	4.2 µM
Cc1[nH]c(=S)n(Nc2cccc(Cl)c2)c1C(=O)O	EC50	cytopathic effect / MTT	-	MT-4	IIIB	>266 µM
Cc1cc(/C=C/C#N)cc(C)c1Oc1nc(NC2CCN(Cc3ccc(C#N)cc3)CC2)nc2ccsc12	EC50	MTT	NNRTI-resistant (RT Y181C)	MT-4	IIIB	0.031 µM
CCCCN1C(=O)[C@@H](Cc2ccccc2)NC1=S	EC50	cytopathic effect / XTT	-	MT-4	-	<10 µg/mL
Cc1[nH]c(=S)n(Nc2cccc(F)c2)c1-c1ccccc1	EC50	cytopathic effect / MTT	-	MT-4	IIIB	>108 µM
Cc1occc1C(=S)Nc1ccc(Cl)c(/C=N/OC(C)(C)C)c1	EC50	cytopathic effect / XTT	RT-V106A	CEM + CEM-SS	NL4-3	2.7 µM
CCOCn1c(Cc2cc(F)ccc2F)c(CC)c(=O)[nH]c1=O	EC50	MTT	K103N + Y181C	MT-4	A17	50 µM
Cc1cccc(Nn2cnc(C)c2-c2cccc(C#N)c2)c1	EC50	cytopathic effect / MTT	-	MT-4	NL4-3	>44.7 µM
C=C(C)[C@@H]1CC[C@]2(CO)CC[C@]3(C)[C@H](CC[C@@H]4[C@@]5(C)CC=C(c6ccc(C(=O)O)cn6)C(C)(C)[C@@H]5CC[C@]43C)[C@@H]12	EC50	luciferase	Gag P373S	MT-2	NL4-3	1 µM
CCO[C@@H]1Cc2cc(C(F)(F)F)ccc2C1N1CCN(C2(C)CCN(C(=O)c3c(C)ncnc3C)CC2)C[C@@H]1C	EC50	p24	-	PBMC	WPS-1	0.0012 µM
Cc1occc1C(=S)Nc1ccc(Cl)c(C(=O)OCC(F)(F)F)c1	EC50	cytopathic effect / XTT	-	CEM + CEM-SS	RF	0.011 µM
Cc1ncn(Nc2cccc(Cl)c2)c1-c1cccc(C#N)c1	EC50	cytopathic effect / MTT	-	MT-4	IIIB	6.96 µM
COCc1nc(Nc2ccc(C#N)cc2)nc(Nc2c(C)cc(/C=C/C#N)cc2C)c1C(=O)NCC1CCCO1	EC50	-	-	MT4 CMV-EGFP	MDR	0.355 µM
COc1c(N2CCN(CN3C(=O)C(=Nc4ccc(S(=O)(=O)Nc5nc(C)cc(C)n5)cc4)c4ccccc43)C(C)C2)c(F)cc2c(=O)c(C(=O)O)cn(C3CC3)c12	EC50	cytopathic effect / MTT	-	MT-4	IIIB	15.6 µM
O=C1Nc2ccc(Cl)cc2[C@@](C#CC2CC2)(C(F)(F)F)O1	EC50	MTT	E138K	MT-4	-	0.0065 µM
Cc1occc1C(=S)Nc1ccc(Cl)c(C(=O)OC(C)C)c1	EC50	cytopathic effect / XTT	RT-K103N	CEM + CEM-SS	NL4-3	5.5 µM
C=C(C)[C@@H]1CC[C@]2(CO)CC[C@]3(C)[C@H](CC[C@@H]4[C@@]5(C)CC=C(c6cc(C(=O)O)[nH]n6)C(C)(C)[C@@H]5CC[C@]43C)[C@@H]12	EC50	luciferase	Gag P373S	MT-2	NL4-3	1 µM
N#Cc1cc(Cl)cc(Oc2c(Br)ccc(CC(=O)Nc3ccc(S(N)(=O)=O)cc3Cl)c2F)c1	EC50	-	Y188L	MT-4	-	0.034 µM
CCOC(=O)c1ccc(CN2CCC(Nc3nc(Oc4c(C)cc(/C=C/C#N)cc4C)c4sccc4n3)CC2)cc1	EC50	MTT	-	MT-4	RES056	0.165 µM
COCc1nc(Nc2ccc(C#N)cc2)nc(Nc2c(C)cc(/C=C/C#N)cc2C)c1C(=O)NCc1cccnc1	EC50	-	-	MT4 CMV-EGFP	K103N + Y181C	0.0132 µM
Cc1cc(C)nc(NS(=O)(=O)c2ccc(N=C3C(=O)N(CN4CCN(c5ccc([N+](=O)[O-])cc5)CC4)c4ccc(F)cc43)cc2)n1	EC50	cytopathic effect / MTT	-	MT-4	IIIB	>44.12 µM
Cc1cc(C#N)cc(C)c1Oc1nc(NC2CCC(NCc3ccc(O)cc3)CC2)nc2ccsc12	EC50	MTT	-	MT-4	RES056	>20.1 µM
CC(C)n1c(=O)c(O)c2n(c1=O)CCN(Cc1ccc3ccccc3n1)C2=O	EC95	p24	-	MT-4	-	<10 µM
CN1CCN(C(=S)NCCc2ccccc2)CC1	EC50	cytopathic effect / XTT	-	MT-4	-	>100 µg/mL
C[C@H]1[C@H](O)[C@@H](C)/C=C/C=C/C=C/C=C/C=C/C=C/C=C/[C@H](O[C@@H]2O[C@H](C)[C@@H](O)[C@H](N)[C@@H]2O)C[C@@H]2O[C@](O)(C[C@@H](O)C[C@@H](O)CC[C@H](O)[C@@H](O)C[C@@H](O)CC(=O)O[C@H]1C)C[C@H](O)[C@H]2C(=O)O	EC50	p24 / RT activity	-	PBMC	92UG037 CLADE A R5 (NSI)	1.5 µM
CN1C(=O)[C@@H](Cc2ccccc2)NC1=S	EC50	RT activity	-	MT-4	-	<100 µg/mL
C=C(C)[C@@H]1CC[C@]2(CO)CC[C@]3(C)[C@H](CC[C@@H]4[C@@]5(C)CC=C(c6ccc(C(=O)O)c(Cl)c6)C(C)(C)[C@@H]5CC[C@]43C)[C@@H]12	EC50	luciferase	Gag P373S	MT-2	NL4-3	1 µM
Cc1ccc(CN2CCC(Nc3nc(Oc4c(C)cc(/C=C/C#N)cc4C)c4sccc4n3)CC2)cc1	EC50	MTT	NNRTI-resistant (RT F227L V106A)	MT-4	IIIB	0.129 µM
CCn1cc(C(=O)O)c(=O)c2cc(F)c(N3CCN(CN4C(=O)C(=Nc5ccc(S(=O)(=O)Nc6nc(C)cc(C)n6)cc5)c5ccccc54)C(C)C3)c(F)c21	EC50	cytopathic effect / XTT	-	CEM	IIIB	>117 µM
C=CCOCn1c(Cc2cc(C(F)(F)F)cc(C(F)(F)F)c2)c(CC)c(=O)[nH]c1=O	EC50	MTT	K103N + Y181C	MT-4	A17	>100 µM
Nc1ccn([C@@H]2O[C@H](CO)C=C2F)c(=O)n1	EC50	RT activity	RT-M184V	PBMC	-	<1.8 µM
Cc1occc1C(=S)Nc1ccc(Cl)c(C(=O)OCC2CC2)c1	EC50	cytopathic effect / XTT	-	CEM + CEM-SS	NL4-3	0.05 µM
Cc1cc(C#N)cc(C)c1Oc1nc(NC2CCN(Cc3ccc(S(N)(=O)=O)cc3)CC2C(=O)O)nc2ccsc12	EC50	MTT	NNRTI-resistant (RT F227L V106A)	MT-4	IIIB	2.53 µM
COCc1nc(Nc2ccc(C#N)cc2)nc(Nc2c(C)cc(/C=C/C#N)cc2C)c1C(=O)NCc1ccccn1	EC50	-	-	MT4 CMV-EGFP	K103N + Y181C	0.017 µM
O=C1c2c(O)c(=O)n(C3Cc4ccccc4C3)c(=O)n2CCN1Cc1ccc(F)cc1	EC95	p24	-	MT-4	-	<10 µM
COCc1nc(Nc2ccc(C#N)cc2)nc(Nc2c(C)cc(/C=C/C#N)cc2C)c1C(=O)N(C)OC	EC50	-	-	MT4 CMV-EGFP	MDR	0.537 µM
CC(=O)N1C(=O)[C@@H](Cc2ccccc2)NC1=S	EC50	cytopathic effect / XTT	-	MT-4	-	<10 µg/mL
COCc1nc(Nc2ccc(C#N)cc2)nc(Nc2c(C)cc(/C=C/C#N)cc2C)c1C(=O)NCCN1CCOCC1	EC50	-	-	MT4 CMV-EGFP	IIIB	0.00389 µM
O=C1c2c(O)c(=O)n(CCCn3ccnc3)c(=O)n2CCN1Cc1ccc(F)cc1	EC95	p24	-	MT-4	-	<10 µM
CC(C)(C)O/N=C/c1cc(NC(=S)c2ccsc2)ccc1Cl	EC50	cytopathic effect / XTT	-	CEM + CEM-SS	RF	0.095 µM
CC[C@]1(CO)O[C@@H](n2cnc3c(N)ncnc32)C[C@@H]1O	EC50	luciferase	(delta)Env	TZM-bl	-	0.184 µM
CCOCn1c(Cc2ccccc2)c(C(C)C)c(=O)[nH]c1=O	EC50	MTT	-	MT-4	N119 (Y181C)	>20 µM
COc1c(N2CCN(CN3C(=O)C(=Nc4ccc(S(=O)(=O)Nc5nc(C)cc(C)n5)cc4)c4cc(F)ccc43)C(C)C2)c(F)cc2c(=O)c(C(=O)O)cn(C3CC3)c12	EC50	cytopathic effect / MTT	-	MT-4	IIIB	12.1 µM
Cc1nc(NC(=O)NCCc2ccccc2)sc1C	EC50	cytopathic effect / XTT	-	MT-4	-	<10 µg/mL
Cc1cc(C#N)cc(C)c1Oc1nc(NC2CCC(NCc3ccc(F)cc3)CC2)nc2ccsc12	EC50	MTT	NNRTI-resistant (RT F227L V106A)	MT-4	IIIB	>2.77 µM
C=C(C)[C@@H]1CC[C@]2(CO)CC[C@]3(C)[C@H](CC[C@@H]4[C@@]5(C)CC=C(c6ccc(C(=O)O)cc6C)C(C)(C)[C@@H]5CC[C@]43C)[C@@H]12	EC50	luciferase	Gag P373S	MT-2	NL4-3	1 µM
O=C1NC(=S)N[C@@H]1Cc1ccccc1	EC50	cytopathic effect / XTT	-	MT-4	-	>10 µg/mL

For reference, 7 entries again:

SMILES | measure | method | mutations | cells | strain or isolate | result
Cc1occc1C(=S)Nc1ccc(Cl)c(/C=N/OC(C)(C)C)c1 | EC50 | cytopathic effect / XTT | RT-V106A | CEM + CEM-SS | NL4-3 | 2.7 µM
Cc1ncn(Nc2cccc(Cl)c2)c1-c1cccc(C#N)c1 | EC50 | cytopathic effect / MTT | - | MT-4 | IIIB | 6.96 µM
CC(=O)N1C(=O)[C@@H](Cc2ccccc2)NC1=S | EC50 | cytopathic effect / XTT | - | MT-4 | - | <10 µg/mL
Cc1cc(C#N)cc(C)c1Oc1nc(NC2CCC(NCc3ccc(F)cc3)CC2)nc2ccsc12 | EC50 | MTT | NNRTI-resistant (RT F227L V106A) | MT-4 | IIIB | >2.77 µM
O=C1NC(=S)N[C@@H]1Cc1ccccc1 | EC50 | cytopathic effect / XTT | - | MT-4 | - | >10 µg/mL
COCc1nc(Nc2ccc(C#N)cc2)nc(Nc2c(C)cc(/C=C/C#N)cc2C)c1C(=O)NCc1cccnc1 | EC50 | - | - | MT4 CMV-EGFP | K103N + Y181C | 0.0132 µM
Cc1[nH]c(=S)n(Nc2cccc(F)c2)c1-c1ccccc1 | EC50 | cytopathic effect / MTT | - | MT-4 | IIIB | >108 µM